Values of other authors in PMC12724327, “Structure-guided discovery of a small molecule inhibitor of SARS-CoV-2 main protease with potent in vitro and in vivo antiviral activities” (Journal of Virology, 2025).

Target: SARS-CoV-2 M^pro (Severe acute respiratory syndrome coronavirus 2, UniProt P0DTD1)
Settings: cited from earlier work

In the case of `CC(C)(C)OC(=O)N[C@H](C(=O)N[C@@H](Cc1ccccc1)C(=O)N[C@H](C=O)C[C@@H]1CCNC1=O)C(C)(C)C`, the IC50 is given as 8.8 nM.
